Screening data, single-dose tests

Data taken from ChEMBL document CHEMBL3988442, “University of Dundee, Small-Polar-MMV Screening Library” (2021).

Mtb cholesterol medium: 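Growth of Mycobacterium tuberculosis over 4 days (cholesterol / DPPC medium with tyloxapol); the read-out is not stated. Compounds at 500 µM. The record gives no direction; compounds that gave an IC50 in retests scored well above the rest, so higher reads as more growth inhibition. About 18,000 compounds were tested under these conditions; 5% (about 900) showed 50% or more at least once.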
Mtb glucose medium: 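Phenotypic screen: M. tuberculosis growth, glucose 7H9 medium, 3 days; the read-out is not stated. Compounds at 500 µM. Higher reads as more growth inhibition (inferred: compounds with an IC50 in retests scored well above the rest). Size under these conditions: about 18,000 compounds, about 1,400 of them at 50% or above in at least one test.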

The filed quantity is “Percent Effect” (%). The controls that fix the scale are not given in the record; negative values are as filed. Many other results are left out here, so strong results are more common than in the screen. A dash means the value is not listed here; it may have been measured.

| # | Compound | Mtb cholesterol medium | Mtb glucose medium |
|---|---|---|---|
| 1 | `Cc1ccc(C(=O)N2CCC3(CCCCO3)CC2)cn1` | - | 54.3% |
| 2 | `CCOc1ccccc1NC(=O)CSc1c[nH]nn1` | 51.91% | - |
| 3 | `CC1CNCCN1c1nc2ccccc2o1` (centres unmarked) | - | 47.34% |
| 4 | `OCC1CCN(Cc2cc(F)cc3cccnc23)CC1` | - | -1.086% |
| 5 | `Cc1cc(C)c(C#N)c(N2CCOCC(CO)C2)n1` (centres unmarked) | 51.12% | 50.34% |
| 6 | `NCCC(=O)Nc1ccccc1` | -8.085% | 2.015% |
| 7 | `CN1CC(CN)OC1=O` (centres unmarked) | - | 7.779% |
| 8 | `CN(C)CCCNC(=O)c1cc2ccccc2o1` | - | 14.44% |
| 9 | `COc1ccc(C)cc1CN1CCN(S(N)(=O)=O)CC1` | 65.66% | 79.12% |
| 10 | `CC1(C)C(=O)NCCN1C(=O)C1CCC1` | - | 5.54% |
| 11 | `O=C(NCc1cc[nH]n1)NCC(O)c1cccc(Cl)c1` (centres unmarked) | 3.154% | - |
| 12 | `CC(Cc1ccco1)NC(=O)c1cccnc1O` (centres unmarked) | - | 31.58% |
| 13 | `O[C@H]1C[C@@H](c2cc(NCCc3cn[nH]c3)ncn2)C1` | - | 20.1% |
| 14 | `Cc1nc(COc2ccc(C(=O)OCC#N)cc2)no1` | 76.75% | 63.98% |
| 15 | `CC(C)NC(=O)Nc1cccc(S(=O)(=O)C(F)F)c1` | 69.64% | 69.98% |
| 16 | `CCOc1ccc(S(=O)(=O)N[C@@H](C)c2cncs2)cn1` | - | 32.13% |
| 17 | `c1ccc(CN2CCCN(CC3CCOC3)CC2)nc1` (centres unmarked) | - | 6.804% |
| 18 | `O=C1CCN(CCOc2cc(F)cc(Br)c2)CCN1` | - | 71.76% |
| 19 | `Cc1ccncc1NC1CS(=O)(=O)c2ccccc21` (centres unmarked) | 101.1% | 96.08% |
| 20 | `CCN(CCCS(=O)(=O)NC)c1cccc(CO)c1` | - | 4.44% |
| 21 | `OC1(CN2CCc3ccccc3C2)CNCCOC1` (centres unmarked) | - | 10.42% |
| 22 | `CCS(=O)(=O)NCCNc1ccccc1` | 14% | 43.38% |
| 23 | `NCCc1nsc2ccccc12` | 69.27% | 80.48% |
| 24 | `O=C(NCC1CCCCN1)Nc1ccccc1` (centres unmarked) | 6.715% | - |
| 25 | `O=c1cc(C2CCC2)nc[nH]1` | - | 1.897% |
| 26 | `Cc1n[nH]c(SCc2nc(-c3ccccn3)no2)n1` | - | 15.59% |
| 27 | `CC1CCCN(c2nc(C(=O)N3CCOCC3)cs2)C1` (centres unmarked) | - | 64.78% |
| 28 | `CCC(NC(=O)c1cnc(SC)nc1)c1ccnn1C` (centres unmarked) | - | 3.126% |
| 29 | `Cc1cnc(CN2CCC(N)CC2)c(C)c1O` | - | -1.839% |
| 30 | `CC(C)(C)CNCCS(=O)(=O)N1CCOCC1` | - | 1.829% |
| 31 | `COc1ccnc(N2CC(O)(C3CC3)C2)n1` | 15.03% | - |
| 32 | `N#CC1(C(=O)NCc2ccc(O)c(F)c2)CCCC1` | 22% | - |
| 33 | `O=C(CCc1ccccc1F)Nc1nnc[nH]1` | -14.32% | - |
| 34 | `CCOc1ccc(CN2CCC(O)CC2)cc1` | 16.3% | - |
| 35 | `NS(=O)(=O)C1CCCOC1` (centres unmarked) | - | -8.893% |
| 36 | `CCCc1cc(C(=O)N2CCOC(C(F)(F)F)C2)no1` (centres unmarked) | 5.474% | 5.652% |
| 37 | `CCC(CO)N1CCN(c2cccc(C)n2)CC1` (centres unmarked) | - | 15% |
| 38 | `CCN1CCCC1CNC(=O)c1ccc(C#N)cc1` (centres unmarked) | 5.678% | 15.16% |
| 39 | `CCOC(=O)c1cccnc1-n1cc(Br)cn1` | - | 49.87% |
| 40 | `CN(C)C(CN)c1cccc(F)c1` (centres unmarked) | - | 56.45% |
| 41 | `O=C1CN(c2ncnc3c2cnn3CCO)CCN1` | - | -1.717% |
| 42 | `CC(C)CN1CCC(N)CC1` | - | 2.059% |
| 43 | `COCCSCc1cccc(NC(=O)C(C)N)c1` (centres unmarked) | - | 52.87% |
| 44 | `COC(=O)C1CCCCN1C(=O)c1cccn1C` (centres unmarked) | - | 16.84% |
| 45 | `NCc1ccc2c(c1)OCCCO2` | 23.4% | 30.1% |

The first 3 entries again:

| Compound | Mtb cholesterol medium | Mtb glucose medium |
|---|---|---|
| `Cc1ccc(C(=O)N2CCC3(CCCCO3)CC2)cn1` | - | 54.3% |
| `CCOc1ccccc1NC(=O)CSc1c[nH]nn1` | 51.91% | - |
| `CC1CNCCN1c1nc2ccccc2o1` (centres unmarked) | - | 47.34% |